Drawing on patent US6939854B2 (priority 2000, dated 2005), this text covers step yield for seven substances.

*: point of attachment. Boc = CC(C)(C)OC(=O)*; OtBu = CC(C)(C)O*

One data set in a line: general procedure: solution-phase peptide synthesis; DCC/HOBt; N-hydroxysuccinimide ester; PyAOP/DIEA; EDCI/HOAt. As to conditions: coupling step.
For “H-Asp-Glu-Val-Val-Pro-(1R)-1-amino-3-(4-trifluoromethyl)phenylpropylboronic acid (+)-pinanediol ester”, the step yield was determined as 16%.

Substance “H-Asp-Glu-Val-Val-Pro-(1R)-1-amino-3-(2,4-dimethyl)phenylpropylboronic acid (+)-pinanediol ester” displayed a step yield of 17%.

Regarding Boc-D(OtBu)E(OtBu)VVP-OH, the step yield is recorded as 82%.

On to “(2-pyrazinecarbonyl)-Val-Val-Hyp(OBzl)-(1R)-1-amino-3-(4-trifluoromethyl)phenylpropylboronic acid (+)-pinanediol ester”, for which the step yield is 45%.

For the substance “H-Asp-Glu-Val-Val-Pro-(1R)-1-amino-3-(2,5-dimethyl)phenylpropylboronic acid (+)-pinanediol ester”, the step yield is given as 8%.

The same data set, now with this note: late stage modification step.
As for “H-Asp-Glu-Val-Val-Pro-(1R)-1-amino-3-phenylpropylboronic acid (+)-pinanediol ester”, the step yield was determined as 100%.

“H-Asp-Glu-Val-Val-Pro-(1R)-1-amino-5-methylhexylboronic acid (+)-pinanediol ester”: the step yield is given as 7.5%.
